Test results taken from US20260250325A1, “Antiviral Polypeptide Membrane Fusion Inhibitor, and Preparation Method and Application Thereof” (priority 2025, published 2026).
Where a SMILES comes first, the peptide text is derived from it. [ ]: non-standard residue; d: D form. The star is where a group is joined. ξ: configuration not given here. Succinyl(4-O-cholesteryl) = CC(C)CCC[C@@H](C)[C@H]1CC[C@H]2[C@@H]3CC=C4C[C@@H](OC(=O)CCC(=O)*)CC[C@]4(C)[C@H]3CC[C@]12C; ξD = NC(CC(=O)O)C(=O)O

tested on: RSV A long virus strain; assay type: cell-based; details: CC50/IC50, HEp-2 cells
Procedure: In this embodiment, an RSV-A long virus strain was used as an infection virus in the present disclosure. The anti-RSV activity of the synthesized polypeptide was determined through CPE detection.
The inhibitory activity of the compounds of Table 1-1-Table 1-5, positive polypeptide in Table 1-11, and positive control T-118 against the RSV-A long virus strain was detected.
Human Epithelial Pharyngeal Carcinoma Cells (HEp-2) were from the American Type Culture Collection (ATCC), with a catalog number CCL-23. The cells were cultured in a DMEM culture solution in which 10% fetal bovine serum, 1% sodium pyruvate, 1% nonessential amino acids, 2 mM glutamine, 100 U/mL penicillin, and 100 μg/mL streptomycin were added. The RSV A long virus strain was from the ATCC, with a catalog number VR-26.
This study used a plaque reduction experiment to detect the in-vitro activity of a test sample against the RSV A long virus strain. The test sample and a control compound were tested at 8 concentrations in duplicated wells. The HEp-2 cells were digested with trypsin and then diluted to a concentration of 300,000 cells per milliliter by using an experimental culture solution. The diluted cells were added to a 96-well cell test board, with 100 μL per well, corresponding to 30000 cells per well. The cells were cultured overnight in a 37° C. incubator with 5% CO2. On the second day, the test sample was diluted in an experimental culture medium at a fold ratio. The sample diluted at a fold ratio and an equal volume of virus (100 PFU per well) were well mixed and incubated at 37° C. in 5% CO2 for 1 h. Then, the culture solution in the 96-well cell test board was discarded, the sample virus mixed solution (200 μL) was added to the 96-well cell culture plate, and incubated at 37° C. in 5% CO2 for 2 hours. After 2 h, the sample virus mixed solution was discarded, and 200 μL of maintenance culture medium containing 0.8% CMC and the corresponding concentration of the test sample was added. A cell control (cells, without compound treatment or viral infection) and a viral control (cell infection virus, without compound treatment) were set. The cells were cultured for 1 day in the 37° C. incubator with 5% CO2. One day after viral infection, the culture medium was discarded, the cells were fixed with 4% paraformaldehyde, and then permeabilization was performed with 0.5% Triton X-100. After the plate was washed with DPBS, an RSV-specific antibody (RSV antibody, diluted 1:3000) was added and incubated at 37° C. for 1 h. Then, a secondary antibody (donkey anti-goat IgG, diluted 1:500) and incubated at 37° C. for 1 h. The secondary antibody was discarded, a TrueBlue solution was added, dyeing was performed for 10 min; and the plate was washed with running water and then air-dried, and the number of spots in each well was counted by using a microplate imaging counter. Raw data was used for calculating the antiviral activity of the samples.
The raw data for plaque counts and cell viability tests were used for analyzing the antiviral activity and cytotoxicity of the test samples, respectively. A calculation formula was shown as follows.
% inhibition rate=100−(sample value-cell control average value)/(virus control average value-cell control average value)×100%
Non-linear fitting analysis was performed on the inhibition rate of the sample by using GraphPad Prism (version 10), so as to calculate the IC50 and CC50 values for the sample.
IC50: in an in-vitro antiviral activity experiment, IC50 represented an inhibition ability indicator of a compound to be tested against the Hep-2 cells infected by the RSV A long virus strain.

Structure (SMILES) | Safety index (SI)
CC[C@H](C)[C@H](NC(=O)[C@H](CO)NC(=O)[C@H](C)NC(=O)[C@H](CC(=O)O)NC(=O)[C@H](Cc1ccccc1)NC(C)=O)C(=O)N[C@@H](CCC(=O)O)C(=O)N[C@@H](CCC(=O)O)C(=O)N[C@H](C(=O)N[C@@H](CC(N)=O)C(=O)N[C@@H](CCCNC(=N)N)C(=O)N[C@@H](CCCNC(=N)N)C(=O)N[C@H](C(=O)N[C@@H](CCC(=O)O)C(=O)N[C@@H](CCC(=O)O)C(=O)N[C@@H](CO)C(=O)N[C@@H](CC(C)C)C(=O)N[C@@H](CCCNC(=N)N)C(=O)N[C@@H](CCCNC(=N)N)C(=O)N[C@H](C(=O)N[C@@H](CCC(=O)O)C(=O)N[C@@H](CCC(=O)O)C(=O)N[C@@H](CO)C(=O)N[C@@H](CC(=O)O)C(=O)N[C@@H](CCCNC(=N)N)C(=O)N[C@@H](CCCNC(=N)N)C(=O)N[C@@H](CC(C)C)C(=O)N[C@@H](CCC(=O)O)C(=O)N[C@H](C(=O)N[C@@H](CC(N)=O)C(=O)N[C@@H](CCCCN)C(=O)N[C@@H](CCCCN)C(=O)N[C@@H](C)C(N)=O)C(C)C)[C@@H](C)CC)[C@@H](C)CC)C(C)C [Compound 1] (Ac-FDASIEEVNRRIEESLRRIEESDRRLEVNKKA-NH2) | >5.88
CC[C@H](C)[C@H](NC(=O)[C@H](CCCCN)NC(=O)[C@H](CCCCN)NC(=O)[C@H](CC(C)C)NC(=O)[C@H](CO)NC(=O)[C@H](CCC(=O)O)NC(=O)[C@H](CCC(=O)O)NC(=O)[C@@H](NC(=O)[C@H](CCCCN)NC(=O)[C@H](CCCCN)NC(=O)[C@H](CC(N)=O)NC(=O)[C@@H](NC(=O)[C@H](CCC(=O)O)NC(=O)[C@H](CCC(=O)O)NC(=O)[C@@H](NC(=O)[C@H](CCCCN)NC(=O)[C@H](CCCCN)NC(=O)[C@H](CCCCN)NC(=O)[C@H](CC(=O)O)NC(=O)[C@H](Cc1ccccc1)NC(=O)[C@H](CCC(=O)O)NC(=O)[C@H](CC(=O)O)NC(C)=O)[C@@H](C)CC)C(C)C)[C@@H](C)CC)C(=O)N[C@@H](CCC(=O)O)C(=O)N[C@@H](CCC(=O)O)C(=O)N[C@@H](CO)C(=O)N[C@@H](CC(=O)O)C(=O)N[C@@H](CCCCN)C(=O)N[C@@H](CCCCN)C(=O)N[C@@H](CC(C)C)C(=O)N[C@@H](CCC(=O)O)C(=O)N[C@@H](CCC(=O)O)C(=O)N[C@H](C(N)=O)C(C)C [Compound 3] (Ac-DEFDKKKIEEVNKKIEESLKKIEESDKKLEEV-NH2) | >1.81
CC[C@H](C)[C@H](NC(=O)[C@H](CCCCN)NC(=O)[C@H](CCCCN)NC(=O)[C@H](CC(C)C)NC(=O)[C@H](CO)NC(=O)[C@H](CCC(=O)O)NC(=O)[C@H](CCC(=O)O)NC(=O)[C@@H](NC(=O)[C@H](CCCCN)NC(=O)[C@H](CCCCN)NC(=O)[C@H](CC(N)=O)NC(=O)[C@@H](NC(=O)[C@H](CCC(=O)O)NC(=O)[C@H](CCC(=O)O)NC(=O)[C@@H](NC(=O)[C@H](CCCCN)NC(=O)[C@H](CCCCN)NC(=O)[C@H](CC(=O)O)NC(=O)[C@H](Cc1ccccc1)NC(=O)[C@H](CCC(=O)O)NC(=O)[C@H](CC(=O)O)NC(=O)[C@H](Cc1c[nH]c2ccccc12)NC(C)=O)[C@@H](C)CC)C(C)C)[C@@H](C)CC)C(=O)N[C@@H](CCC(=O)O)C(=O)N[C@@H](CCC(=O)O)C(=O)N[C@@H](CO)C(=O)N[C@@H](CC(=O)O)C(=O)N[C@@H](CCCCN)C(=O)N[C@@H](CCCCN)C(=O)N[C@@H](CC(C)C)C(=O)N[C@@H](CCC(=O)O)C(=O)N[C@@H](CCC(=O)O)C(=O)N[C@H](C(=O)N[C@@H](CC(N)=O)C(=O)N[C@@H](CCCCN)C(=O)N[C@@H](CCCCN)C(=O)N[C@@H](CC(C)C)C(N)=O)C(C)C [Compound 5] (Ac-WDEFDKKIEEVNKKIEESLKKIEESDKKLEEVNKKL-NH2) | >7.12
CC[C@H](C)[C@H](NC(=O)[C@H](CCC(=O)O)NC(=O)[C@H](CCC(=O)O)NC(=O)[C@H](CC(C)C)NC(=O)[C@H](CO)NC(=O)[C@H](CCC(=O)O)NC(=O)[C@H](CCC(=O)O)NC(=O)[C@@H](NC(=O)[C@H](CCCCN)NC(=O)[C@H](CCC(=O)O)NC(=O)[C@H](CC(N)=O)NC(=O)[C@@H](NC(=O)[C@H](CCC(N)=O)NC(=O)[C@H](CC(N)=O)NC(=O)[C@@H](NC(=O)[C@H](CCCCN)NC(=O)[C@H](CCC(N)=O)NC(=O)[C@H](CC(N)=O)NC(=O)[C@H](Cc1ccccc1)NC(=O)[C@H](CCC(=O)O)NC(=O)[C@H](C)NC(=O)[C@H](Cc1ccccc1)NC(C)=O)[C@@H](C)CC)C(C)C)[C@@H](C)CC)C(=O)N[C@@H](CCCNC(=N)N)C(=O)N[C@@H](CCCCN)C(=O)N[C@@H](CO)C(=O)N[C@@H](CC(=O)O)C(=O)N[C@@H](CCC(=O)O)C(=O)N[C@@H](CCC(=O)O)C(=O)N[C@@H](CC(C)C)C(=O)N[C@@H](Cc1c[nH]cn1)C(=O)N[C@@H](CC(N)=O)C(=O)N[C@H](C(=O)N[C@@H](CC(N)=O)C(=O)N[C@@H](C)C(=O)N[C@H](C(=O)N[C@H](C(N)=O)[C@@H](C)O)[C@@H](C)O)C(C)C [Compound 8] (Ac-FAEFNQKINQVNEKIEESLEEIRKSDEELHNVNATT-NH2) | >2.12
CC[C@H](C)[C@H](NC(=O)[C@H](CCCCN)NC(=O)[C@H](CCCCN)NC(=O)[C@H](CC(C)C)NC(=O)[C@H](CO)NC(=O)[C@H](CCC(=O)O)NC(=O)[C@H](CCC(=O)O)NC(=O)[C@@H](NC(=O)[C@H](CCCCN)NC(=O)[C@H](CCCCN)NC(=O)[C@H](CC(N)=O)NC(=O)[C@@H](NC(=O)[C@H](CCC(=O)O)NC(=O)[C@H](CCC(=O)O)NC(=O)[C@@H](NC(=O)[C@H](CCCCN)NC(=O)[C@H](CCCCN)NC(=O)[C@H](CC(=O)O)NC(=O)[C@H](Cc1ccccc1)NC(=O)[C@H](CCC(=O)O)NC(=O)[C@H](CC(=O)O)NC(=O)[C@H](Cc1c[nH]c2ccccc12)NC(C)=O)[C@@H](C)CC)C(C)C)[C@@H](C)CC)C(=O)N[C@@H](CCC(=O)O)C(=O)N[C@@H](CCC(=O)O)C(=O)N[C@@H](CO)C(=O)N[C@@H](CC(=O)O)C(=O)N[C@@H](CCCCN)C(=O)N[C@@H](CCCCN)C(=O)N[C@@H](CC(C)C)C(=O)N[C@@H](CCC(=O)O)C(=O)N[C@@H](C)C(=O)N[C@@H](C)C(=O)N[C@@H](C)C(=O)N[C@@H](CCCCN)C(=O)N[C@@H](CCCCNC(=O)CCC(=O)O[C@H]1CC[C@@]2(C)C(=CC[C@H]3[C@@H]4CC[C@H]([C@H](C)CCCC(C)C)[C@@]4(C)CC[C@@H]32)C1)C(N)=O [Compound 13] (Ac-WDEFDKKIEEVNKKIEESLKKIEESDKKLEAAAKK(Succinyl(4-O-cholesteryl))-NH2) | 2358
CC[C@H](C)[C@H](NC(=O)[C@H](CCCCN)NC(=O)[C@H](CCCCN)NC(=O)[C@H](CC(C)C)NC(=O)[C@H](CO)NC(=O)[C@H](CCC(=O)O)NC(=O)[C@H](CCC(=O)O)NC(=O)[C@@H](NC(=O)[C@H](CCCCN)NC(=O)[C@H](CCCCN)NC(=O)[C@H](CC(N)=O)NC(=O)[C@@H](NC(=O)[C@H](CCC(=O)O)NC(=O)[C@H](CCC(=O)O)NC(=O)[C@@H](NC(=O)[C@H](CCCCN)NC(=O)[C@H](CCCCN)NC(=O)[C@H](CC(=O)O)NC(=O)[C@H](Cc1ccccc1)NC(=O)[C@H](CCC(=O)O)NC(=O)C(CC(=O)O)NC(C)=O)[C@@H](C)CC)C(C)C)[C@@H](C)CC)C(=O)N[C@@H](CCC(=O)O)C(=O)N[C@@H](CCC(=O)O)C(=O)N[C@@H](CO)C(=O)N[C@@H](CC(=O)O)C(=O)N[C@@H](CCCCN)C(=O)N[C@@H](CCCCN)C(=O)N[C@@H](CC(C)C)C(=O)N[C@@H](CCC(=O)O)C(=O)N[C@@H](CCC(=O)O)C(=O)N[C@H](C(=O)N[C@@H](CC(N)=O)C(=O)N[C@@H](CCC(=O)O)C(=O)N[C@@H](C)C(=O)N[C@@H](C)C(=O)N[C@@H](C)C(=O)N[C@@H](CCCCN)C(=O)N[C@@H](CCCCNC(=O)CCC(=O)O[C@H]1CC[C@@]2(C)C(=CC[C@H]3[C@@H]4CC[C@H]([C@H](C)CCCC(C)C)[C@@]4(C)CC[C@@H]32)C1)C(N)=O)C(C)C (stereo partly drawn) [Compound 14] (Ac-[ξD]EFDKKIEEVNKKIEESLKKIEESDKKLEEVNEAAAKK(Succinyl(4-O-cholesteryl))-NH2) | 970
